Values joined by “and” are separate entries in the source; they are usually repeats but may differ in a detail not shown here. Identical values can stand only once.
Experiments:
Type in all cases: in vivo, mice
BxPC-3 xenograft = test: Biodistribution in the BxPC-3 xenograft model
Method in brief: (§1)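 Male athymic nude mice (nu/nu) received 1.5 × 10^6 BxPC-3 cells s.c. in the left shoulder region, in 1:1 serum-free DMEM/MatriGel. Studies began at a tumor diameter of ∼0.5 cm. Radiotracers (∼15 to 30 μCi) were given in saline/PBS, n = 3 per time point. Tumor and tissue radioactivity was expressed as decay-corrected %ID/g, mean ± SD. Significance was tested by two-tailed Student's t-test.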

[1] = Biodistribution in the BxPC-3 xenograft model; conditions: male, athymic nude (nu/nu), mouse, BxPC-3 tumor, iv, total radioactivity
Method in brief: as §1

[2] = system: DX3puroβ6 (αvβ6-positive) and DX3puro (αvβ6-negative) xenografts; test: Biodistribution in the DX3puro/DX3puroβ6 xenograft model
Method in brief: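 Each male athymic nude mouse (nu/nu) carried both xenografts: 3 × 10^6 DX3puroβ6 (αvβ6-transduced) and 3 × 10^6 DX3puro (control) melanoma cells in serum-free DMEM, injected s.c. on opposite shoulder flanks. Studies began at a tumor diameter of ∼0.5 cm. Radiotracers (∼15 to 30 μCi) were given in saline/PBS, n = 3 per time point. Uptake was expressed as decay-corrected %ID/g, mean ± SD.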

BxPC-3 tumor = test: MicroPET imaging of the BxPC-3 xenograft model; conditions: mean ± SD, n = 3 animals

CC(C)C[C@H](NC(=O)[C@H](CC(=O)O)NC(=O)CNC(=O)[C@H](CCCNC(=N)N)NC(=O)[C@H](CC(C)C)NC(=O)[C@H](CC(N)=O)NC(=O)[C@@H]1CCCN1C(=O)[C@@H](NC(=O)[C@H](C)NC(=O)[C@H](CC(N)=O)NC(=O)CCOCCOCCOCCOCCOCCOCCOCCOCCOCCOCCOCCOCCOCCOCCOCCOCCOCCOCCOCCOCCOCCOCCOCCOCCOCCOCCOCCOCCNC(=O)c1ccc(F)cc1)C(C)C)C(=O)N[C@@H](CCC(N)=O)C(=O)N[C@H](C(=O)N[C@@H](CC(C)C)C(=O)N[C@@H](C)C(=O)N[C@@H](CCC(N)=O)C(=O)N[C@@H](CCCCN)C(=O)N[C@H](C(=O)N[C@@H](C)C(=O)N[C@@H](CCCNC(=N)N)C(=O)N[C@H](C(N)=O)[C@@H](C)O)C(C)C)C(C)C [[^18F]FBA-PEG28-A20FMDV2]
BxPC-3/blood ratio (BxPC-3 xenograft; 1 h): 11.8 :1
BxPC-3/muscle ratio (BxPC-3 xenograft; 1 h): 2.5 :1
BxPC-3/pancreas ratio (BxPC-3 xenograft; 1 h): 4.2 :1
BxPC-3/blood ratio (BxPC-3 xenograft; 4 h): > 47 :1 and 47.9 :1
BxPC-3/muscle ratio (BxPC-3 xenograft; 4 h): 3.6 :1
BxPC-3/pancreas ratio (BxPC-3 xenograft; 4 h): > 23 :1 and 23.6 :1
retention in BxPC-3 tumors relative to non-PEGylated [^18F]FBA-A20FMDV2 (BxPC-3 xenograft; BxPC-3 model): 12 fold
tissue uptake at 1 h [1]: 1.85 ± 0.44 %ID/g
tissue uptake at 4 h [1]: 1.48 ± 0.04 %ID/g
maximal αvβ6-positive/-negative xenograft uptake ratio [2]: 8.0 :1
SUVmax in BxPC-3 tumor (BxPC-3 tumor; 15min): 1.07 ± 0.29
SUVmax in BxPC-3 tumor (BxPC-3 tumor; 1 h p.i.): 0.91 ± 0.25
SUVmax in BxPC-3 tumor (BxPC-3 tumor; 4 h): 0.63 ± 0.12
